Experiment: Oral taste test (20 uL on the tongue)
Type: in vivo, human
Conditions: for Oral taste, Initial Solution / Oral taste, Final Solution: 20 uL; for Oral taste, Initial Solution: 10 mg/mL, single volunteer; for Oral taste, Final Solution: after pH adjustment

Structure (SMILES) | Oral taste, Initial Solution | Oral taste, Final Solution | oral taste testing (in vivo, po)
CO/N=C1\CN(c2nc3c(cc2F)c(=O)c(C(=O)O)cn3C2CC2)CC1CN (stereo not drawn) [Gemifloxacin] | very bitter unpleasant taste |  | 
COc1c(N2CCNC(C)C2)c(F)cc2c(=O)c(C(=O)O)cn(C3CC3)c12 (stereo not drawn) [Gatifloxacin] | moderate bitter unpleasant | strong bitter | 
C[C@@H]1CN(c2c(F)c(F)c3c(=O)c(C(=O)O)cn(C4CC4)c3c2F)C[C@H](C)N1 [Orbifloxacin] | strong unpleasant taste | very strong, very | 
N[C@@H]1[C@H]2CN(c3nc4c(cc3F)c(=O)c(C(=O)O)cn4-c3ccc(F)cc3F)C[C@@H]12 [Trovafloxacin] | very strong bitter |  | 
CN1CCN(c2c(F)cc3c(=O)c(C(=O)O)cn4c3c2OCN4C)CC1 [Marbofloxacin] | bitter unpleasant | moderate to strong | 
C[C@@H]1CN(c2c(F)c(N)c3c(=O)c(C(=O)O)cn(C4CC4)c3c2F)C[C@H](C)N1 [Sparfloxacin] | slight taste | strong almond-like | 
NC1CCN(c2nc3c(cc2F)c(=O)c(C(=O)O)cn3-c2ccc(F)cc2F)C1 (stereo not drawn) [Tosufloxacin] | mild to moderate | strong almond-like | 
CCn1cc(C(=O)O)c(=O)c2cc(F)c(N3CCN(C)CC3)cc21 [Pefloxacin] | strong bitter unpleasant |  | 
CCn1cc(C(=O)O)c(=O)c2cc(F)c(N3CCNC(C)C3)c(F)c21 (stereo not drawn) [Lomefloxacin] | moderate to strong |  | moderately strong almond-like taste

Reference: patent US10987357B2, “Aerosolized fluoroquinolones and uses thereof” (Horizon Orphan, LLC, priority 2005, dated 2021)
